Compound potency records, mixed from different reports. Data source: NIAID ChemDB in PubChem.

All rows: tests in culture; agent: Mycobacterium tuberculosis

Neighbouring rows are from separate reports.

structure,strain,changes,cell line,read by,setting,measure,tested at,result
Cc1cc(-c2cc3c(cc2F)c(=O)c(C(=O)O)cn3C2CC2)cc(C)n1,1620-6,-,-,-,-,MBC,-,2 µg/mL
COc1c(N2CCNC(C)C2)c(F)cc2c(=O)c(C(=O)O)cn(C3CC3)c12,Strain 158,-,-,-,-,MIC,-,>16 µg/mL
O=c1oc2ccc(Cl)cc2c(=O)n1-c1cccc(Cl)c1,CNCTC MY331/88,-,-,-,-,MIC,-,16 µM
CN(Cc1ccco1)NC(=O)C(=O)NCc1ccco1,H37Rv,-,-,BACTEC,-,MIC bound,-,>12.5 µg/mL
CC(C)N=c1cc2n(-c3ccc(Cl)cc3)c3ccccc3nc-2cc1Nc1ccc(Cl)cc1,H37Rv,-,-,-,-,Median MIC,-,0.31 µg/mL
COc1ccc(/C=N/Nc2ccnc3cc(Cl)cc(Cl)c23)c2ccccc12,H37Rv,-,VERO,-,-,inhibition,12.5 µg/mL,10%
NNC(=O)c1ccncc1,Clinical isolate 1868,Rifampicin- and isoniazid-resistant,-,broth dilution,-,MIC,-,<10 µM
CCCCCCCCCCCNCCNCc1cccc(C)c1,-,-,-,-,-,MIC,-,6.25 µM
CO[C@H]1/C=C/O[C@@]2(C)Oc3c(C)c(O)c4c(O)c(c(/C=N/N5CCN(C)CC5)c(O)c4c3C2=O)NC(=O)/C(C)=C\C=C\[C@H](C)[C@H](O)[C@@H](C)[C@@H](O)[C@@H](C)[C@H](OC(C)=O)[C@@H]1C,PR326,-,-,-,-,MIC,-,≤0.02 µg/mL
NC[C@H]1O[C@H](O[C@H]2[C@H](O)[C@@H](O[C@H]3O[C@H](CO)[C@@H](O)[C@H](N)[C@H]3O)[C@H](N)C[C@@H]2N)[C@H](O)[C@@H](O)[C@@H]1O,H37Rv,-,-,-,-,Mean MIC,-,2.19 µg/mL
CC(/C(=N/NC(=O)C(N)=O)c1c(Cl)ccc(Cl)c1O)C1(O)C(=O)Nc2ccccc21,H37Rv,-,-,BACTEC,-,inhibition,12.5 µg/mL,10%
CCOC(=O)Nc1cc2ncc(C)nc2c(NC(=O)OCC)n1,H37Rv,-,-,-,-,EC50,-,>12.5 µg/mL
N#Cc1ccc(-n2c(=O)oc3ccc(F)cc3c2=O)cc1,CNCTC MY331/88,-,-,-,-,MIC,-,16 µM
NCC[C@H](O)C(=O)N[C@@H]1C[C@H](N)[C@@H](O[C@H]2O[C@H](CN)[C@@H](O)[C@H](O)[C@H]2O)[C@H](O)[C@H]1O[C@H]1O[C@H](CO)[C@@H](O)[C@H](N)[C@H]1O,A2B (amikacin-resistant),-,-,-,-,MIC,-,128 µg/mL
Cn1c(=O)c2c(nc3[nH]c(=O)c(Br)cn32)n(C)c1=O,H37Rv,-,-,resazurin,-,MIC bound,-,>6.25 µg/mL
C[C@H]1COc2c(N3CCN(C)CC3)c(F)cc3c(=O)c(C(=O)O)cn1c23,Strain 23,-,-,-,-,MIC,-,0.25 µg/mL
C=CCNc1nc(NC(=O)OCC)cc(N)c1[N+](=O)[O-],H37Rv,-,-,-,-,EC50,-,>12.5 µg/mL
CO/C(C)=C1/NC(=O)[C@H]([C@@H](C)O)NC(=O)c2csc(n2)-c2cc(O)c(-c3nc(C(=O)NCCCN4CCOCC4)cs3)nc2-c2csc(n2)[C@@H]2COC(=O)c3c4c5c(cccc5n3O)COC(=O)[C@@H](O[C@H]3C[C@](C)(O)[C@H](N(C)C)[C@H](C)O3)[C@@H](OC4)[C@H](NC(=O)c3csc1n3)c1nc(cs1)C(=O)N2,Clinical isolate 18343,Isoniazid- and moxifloxacin-resistant,-,broth dilution,-,MIC,-,≤25 µM
Cc1cc(N/N=C/c2ccc3c(c2)OCO3)c2c(Cl)cc(Cl)cc2n1,H37Rv,-,VERO,-,-,MIC,-,>12.5 µg/mL
CC(=O)O[C@H]1C[C@@]2(C)[C@@H](C[C@@H](O)[C@H]3[C@@]4(C)CC[C@@H](O)[C@@H](C)[C@@H]4CC[C@@]32C)/C1=C(\CCC=C(C)C)C(=O)O,H37Rv,-,-,-,-,Mean MIC,-,8.5 µg/mL
CN(C)CCCN1c2ccccc2Sc2ccc(Cl)cc21,Isolate D (drug-resistant),-,-,-,-,MIC,-,20 µg/mL
NC1=CC(=O)C(=O)c2cccnc21,H37Rv,-,-,-,-,inhibition,6.25 µg/mL,0%
CO[C@H]1/C=C/O[C@@]2(C)Oc3c(C)c(O)c4c(=O)c(c5oc6cc(N7CCN(CC(C)C)CC7)cc(=O)c6nc5c4c3=C2O)NC(=O)/C(C)=C\C=C\[C@H](C)[C@H](O)[C@@H](C)[C@@H](O)[C@@H](C)[C@H](OC(C)=O)[C@@H]1C,Kurata,-,-,-,inside macrophages,inhibition,1 µg/mL,83.4%
O=c1oc2ccccc2c(=O)n1-c1cccc(Cl)c1,CNCTC MY331/88,-,-,-,-,MIC,-,31 µM
O=C(NN1C(=O)CSC1=S)c1ccc([N+](=O)[O-])cc1,H37Rv,-,-,BACTEC,-,MIC bound,-,>12.5 µg/mL
C=C(NC(=O)c1csc(-c2nc3c(cc2O)-c2nc(cs2)C(=O)N[C@@H]([C@@H](C)O)C(=O)N/C(=C(\C)OC)c2nc(cs2)C(=O)N[C@@H]2c4nc(cs4)C(=O)N[C@@H](COC(=O)c4c5c6c(cccc6n4O)COC(=O)[C@@H](O[C@H]4C[C@](C)(O)[C@H](N(C)C)[C@H](C)O4)[C@H]2OC5)c2nc-3cs2)n1)C(N)=O,Clinical isolate 1868,Rifampicin- and isoniazid-resistant,-,broth dilution,-,MIC,-,≤25 µM
CO[C@H]1/C=C/O[C@@]2(C)Oc3c(C)c(O)c4c(O)c(c5c(c4c3C2=O)NC2(CCN(CC(C)C)CC2)N=5)=NC(=O)/C(C)=C\C=C\[C@H](C)[C@H](O)[C@@H](C)[C@@H](O)[C@@H](C)[C@H](OC(C)=O)[C@@H]1C,Strain 135 (Q513K),-,-,-,-,MIC,-,32 µg/mL
COc1ccc(CCC2CCc3ccccc3N2C)cc1OC,MT2,-,-,-,-,MIC,-,>100 µg/mL
CC(C)(C)SC(=S)SCC(=O)c1cc2ccccc2o1,H37Rv,-,-,BACTEC,-,inhibition,12.5 µg/mL,75%
CC(=O)NC[C@H]1CN(c2ccc(N3CCOCC3)c(F)c2)C(=O)O1,H37Rv,-,-,resazurin,-,MIC,-,0.5 µg/mL
CCCCC(CC)CN1CN(CC(CC)CCCC)CC(C)(NCCNC2CCCCC2C)C1,-,-,-,-,-,MIC,-,25 µM
CCOC(=O)Nc1ccc(N=Cc2ccccc2)cn1,H37Rv,-,-,-,-,EC50,-,>12.5 µg/mL
Cc1cc(N/N=C/c2cc(C)n(-c3ccccc3)c2C)c2cc(C3CCCCC3)ccc2n1,H37Rv,-,VERO,-,-,inhibition,12.5 µg/mL,100%
Cc1c(C)[n+](=O)c2ccccc2n1[O-],H37Rv,-,-,BACTEC,-,inhibition,12.5 µg/mL,0%
NCC[C@H](O)C(=O)N[C@@H]1C[C@H](N)[C@@H](O[C@H]2O[C@H](CN)[C@@H](O)[C@H](O)[C@H]2O)[C@H](O)[C@H]1O[C@H]1O[C@H](CO)[C@@H](O)[C@H](N)[C@H]1O,MDR14,-,-,broth dilution / resazurin,-,MIC,-,2 µg/mL
CCOC(=O)Nc1cc(N)c2c(n1)OCC(N=[N+]=[N-])=N2,H37Rv,-,-,-,-,EC50,-,>12.5 µg/mL
CO[C@H]1/C=C/O[C@@]2(C)Oc3c(C)c(O)c4c(O)c(c(/C=N/N5CCN(C6CCCC6)CC5)c(O)c4c3C2=O)NC(=O)/C(C)=C\C=C\[C@H](C)[C@H](O)[C@@H](C)[C@@H](O)[C@@H](C)[C@H](OC(C)=O)[C@@H]1C,L405,-,-,-,-,MIC,-,0.1 µg/mL
O=C(NCc1ccccc1)N1CCN(c2ccccc2)C1=O,H37Rv,-,-,BACTEC,-,inhibition,12.5 µg/mL,2%
O=C1CCCN1CCCNCCNCc1ccccc1Sc1ccccc1CO,-,-,-,-,-,MIC,-,12.5 µM
O=C(Nc1ccc(C2=NCCN2)cc1)c1ccc(C(=O)Nc2ccc(C3=NCCN3)cc2)c(Br)c1,H37Rv,-,-,BACTEC,-,MIC bound,-,≤12.5 µg/mL
CO[C@H]1/C=C/O[C@@]2(C)Oc3c(C)c(O)c4c(O)c(c5c(c4c3C2=O)NC2(CCN(CC(C)C)CC2)N=5)=NC(=O)/C(C)=C\C=C\[C@H](C)[C@H](O)[C@@H](C)[C@@H](O)[C@@H](C)[C@H](OC(C)=O)[C@@H]1C,H37Rv,-,-,-,-,MIC,-,0.063 µg/mL
O=C(NCc1ccco1)C(=O)N/N=C/c1ccccc1O,H37Rv,-,-,BACTEC,-,inhibition,12.5 µg/mL,25%
NNC(=O)c1ccncc1,H37Ra,-,-,-,-,Median MIC,-,0.025 µg/mL
COc1ccc2c(c1)CCC1=C2CCS1(=O)=O,H37Rv,-,-,resazurin,-,inhibition,6.25 µg/mL,-5%
COc1ccc(CCNCCNCCc2ccc(Cl)cc2Cl)cc1,-,-,-,-,-,MIC,-,50 µM
Cc1nn2c(=O)[nH]cnc2c1Cl,H37Rv,-,-,resazurin,-,MIC bound,-,>6.25 µg/mL
CO[C@H]1/C=C/O[C@@]2(C)Oc3c(C)c(O)c4c(O)c(c(/C=N/N5CCN(C)CC5)c(O)c4c3C2=O)NC(=O)/C(C)=C\C=C\[C@H](C)[C@H](O)[C@@H](C)[C@@H](O)[C@@H](C)[C@H](OC(C)=O)[C@@H]1C,Clinical isolate 6134,Rifampicin- isoniazid- moxifloxacin-resistant,-,broth dilution,-,MIC,-,>10 µM
CN1c2ccccc2CCC1CCc1ccc2c(c1)OCO2,MT4,-,-,-,-,MIC,-,>100 µg/mL
COc1cccc2c1C(=O)c1c(O)c3c(c(O)c1C2=O)CC(O)(C(C)=O)CC3OC1CC(NCC2(O)OC(C(=O)NCCCN(C)C)C(O)C2O)C(O)C(C)O1,CS-R,-,-,-,-,MIC,-,12.5 µg/mL
CO[C@H]1/C=C/O[C@@]2(C)Oc3c(C)c(O)c4c(O)c(c(/C=N/N5CCN(C)CC5)c(O)c4c3C2=O)NC(=O)/C(C)=C\C=C\[C@H](C)[C@H](O)[C@@H](C)[C@@H](O)[C@@H](C)[C@H](OC(C)=O)[C@@H]1C,Isolate 1,-,-,-,-,MIC,-,16 µg/mL
CCOC(=O)Nc1cc2nc(C)c(-c3ccccc3)nc2c(N)n1,H37Rv,-,-,-,-,EC50,-,>12.5 µg/mL
C[C@@H](NCCNC1CCCCCCC1)C1CCCCC1,-,-,-,-,-,MIC,-,50 µM
C[C@@H]1CN(c2c(F)c(N)c3c(=O)c(C(=O)O)cn(C4CC4)c3c2F)C[C@H](C)N1,Isolate 6,-,-,-,-,MIC,-,4 µg/mL
COC(=O)C1C2CC3c4[nH]c5cc(OC)ccc5c4CCN3CC2CC(OC(=O)CC(C)=O)C1OC,H37Rv,-,-,BACTEC,-,inhibition,12.5 µg/mL,7%
CN[C@@H]1[C@H](O[C@H]2[C@H](O[C@H]3[C@H](O)[C@@H](O)[C@H](N=C(N)N)[C@@H](O)[C@@H]3N=C(N)N)O[C@@H](C)[C@]2(O)C=O)O[C@@H](CO)[C@H](O)[C@H]1O,Isolate 10,-,-,-,-,MIC,-,4 µg/mL
CCCCC(=O)N/N=C/c1ccc(Cl)cc1,H37Rv,-,-,BACTEC,-,inhibition,12.5 µg/mL,25%
CO[C@H]1/C=C/O[C@@]2(C)Oc3c(C)c(O)c4c(O)c(c5c(c4c3C2=O)NC2(CCN(CC(C)C)CC2)N=5)=NC(=O)/C(C)=C\C=C\[C@H](C)[C@H](O)[C@@H](C)[C@@H](O)[C@@H](C)[C@H](OC(C)=O)[C@@H]1C,14 (rifampicin-susceptible),-,-,-,-,MIC,-,≤0.062 µg/mL
O=C(N/N=C/c1ccco1)C(=O)Nc1cccc(C(F)(F)F)c1,H37Rv,-,-,BACTEC,-,inhibition,12.5 µg/mL,0%
CO/C(C)=C1/NC(=O)[C@H]([C@@H](C)O)NC(=O)c2csc(n2)-c2cc(OC)c(-c3nc(C(=O)NCCCN4CCOCC4)cs3)nc2-c2csc(n2)[C@@H]2COC(=O)c3c4c5c(cccc5n3O)COC(=O)[C@@H](O[C@H]3C[C@](C)(O)[C@H](N(C)C)[C@H](C)O3)[C@@H](OC4)[C@H](NC(=O)c3csc1n3)c1nc(cs1)C(=O)N2,Clinical Isolate 913,-,-,broth dilution,-,MIC,-,≤1 µM
COc1ccc2c(c1)[n+]([O-])c(-c1ccccc1)c(N)[n+]2[O-],H37Rv,-,VERO,-,-,MIC,-,3.1 µg/mL
C1=C(CCNCCNCC(c2ccccc2)c2ccccc2)CCCC1,-,-,-,-,-,MIC,-,25 µM
Cc1cc2nc3ccc(O)cc3nc2cc1N,H37Rv,-,-,BACTEC,-,MIC bound,-,>12.5 µg/mL
COc1ccc2oc(=O)n(-c3ccc(F)cc3)c(=O)c2c1,CNCTC MY331/88,-,-,-,-,MIC,-,125 µM
CCOc1nc(-c2ccccc2)cc(-c2ccc(N3CCOCC3)cc2)c1C#N,H37Rv,-,-,BACTEC,-,inhibition,12.5 µg/mL,79%
CCCCCCCCCCCNCCNCC1(O)CCCCC1,-,-,-,-,-,MIC,-,50 µM
CC1(C)CCC[C@](C)([C@H]2CC[C@]3(C)[C@@H]2[C@H](O)C[C@@H]2[C@@]4(C)CC[C@H](O)C(C)(C)[C@@H]4CC[C@]23C)O1,H37Rv,-,-,BACTEC,-,MIC bound,-,>12.5 µg/mL
COc1ccc(/C=N/Nc2cc(C)nc3cc(Cl)cc(Cl)c23)c2ccccc12,H37Rv,-,VERO,-,-,inhibition,12.5 µg/mL,53%

A second listing of 5 rows from above:

COC(=O)C1C2CC3c4[nH]c5cc(OC)ccc5c4CCN3CC2CC(OC(=O)CC(C)=O)C1OC ; strain: H37Rv ; read by: BACTEC ; measure: inhibition ; tested at: 12.5 µg/mL ; result: 7%
COc1ccc(/C=N/Nc2ccnc3cc(Cl)cc(Cl)c23)c2ccccc12 ; strain: H37Rv ; cell line: VERO ; measure: inhibition ; tested at: 12.5 µg/mL ; result: 10%
Cc1cc(-c2cc3c(cc2F)c(=O)c(C(=O)O)cn3C2CC2)cc(C)n1 ; strain: 1620-6 ; measure: MBC ; result: 2 µg/mL
CCOC(=O)Nc1cc2nc(C)c(-c3ccccc3)nc2c(N)n1 ; strain: H37Rv ; measure: EC50 ; result: >12.5 µg/mL
C1=C(CCNCCNCC(c2ccccc2)c2ccccc2)CCCC1 ; measure: MIC ; result: 25 µM

MIC bound comes from a single tested concentration. Blank or dashed fields: not listed here. ECn is the concentration giving n% inhibition of infection, replication or growth. Percent inhibition refers to the dose given; in toxicity tests it is the harm to the cells.